The exact form of at least one protein or probe is not confirmed.
Test system: 5F-Trp-HpNikR
Test: 19F-NMR
Settings: Ni(II) 1.2 eq per monomer, recombinant protein

Sequence	binding result (asymmetric cis state)	binding result (symmetric cis state)
ATATAACACTAATTCATTTTAAATAATAATTA (double strand) [ureA (32 bp, unlabeled)]	binds	
ATATATTATTAATTCATTTTAAATAATAATTA (double strand) [ureA-perf (32 bp, unlabeled)]		binds
